Measured values from several laboratories, pooled; numbers as filed in NIAID ChemDB.

All rows: tests in culture; organism: HIV-1; method: RT activity; measure: EC50

Conditions beyond the fields shown may differ between rows. Blank or dashed fields: not listed here. ECn is the concentration giving n% inhibition of infection, replication or growth.

| compound | strain or isolate | setting | mutations | cells | value |
|---|---|---|---|---|---|
| Cc1nc(CCCCCCC(=O)c2ccccc2)n2nc(NCCCCCCCCN)ccc12 | LAI | - | - | CEM + CEM-SS | 6.2 µM |
| CC(C)C1=C2[C@H]3CC[C@@H]4[C@@]5(C)CC[C@H](OC(=O)CC(C)(C)C(=O)O)C(C)(C)[C@@H]5CC[C@@]4(C)[C@]3(C)CC[C@@]2(NC(=O)CN2CCN(C)CC2)CC1=O | IIIB | 30% human serum | - | MT-2 | <0.199 µM |
| Cc1nc(CCCCCCC(=O)c2ccccc2)n2nc(NCCCCCCCCCCCCNCc3cn([C@H]4C=C[C@@H](CO)O4)c(=O)[nH]c3=O)ccc12 | IIIB | - | - | MT-4 | 0.12 µM |
| C[C@H]1CO[C@@H]2Cn3cc(C(=O)NCc4ccc(F)cc4F)c(=O)c(O)c3C(=O)N12 | NL4-3 | - | G140S/Q148H | CBMC | 0.0094 µM |
| COc1cc(-c2ccc(N=Nc3ccc4c(S(=O)(=O)O)cc(S(=O)(=O)O)c(N)c4c3O)c(OC)c2)ccc1N=Nc1ccc2c(S(=O)(=O)O)cc(S(=O)(=O)O)c(N)c2c1O | KELL | - | - | CEM + CEM-SS | 0.6 µM |
| CC(C)C1=C2C3CCC4[C@@]5(C)CC[C@H](OC(=O)CC(C)(C)C(=O)O)C(C)(C)C5CC[C@@]4(C)[C@]3(C)CC[C@@]2(NC(=O)CN2CCC2)CC1=O | IIIB | 30% human serum | - | MT-2 | <0.199 µM |
| Nc1nc(NC2CC2)c2ncn([C@H]3CO[C@@H](CO)O3)c2n1 | IIIB Laboratory strain | - | - | PBMC | 0.22 µM |
| Cc1ccncc1C(=O)N[C@@]12CC[C@]3(C)[C@H](CC[C@@H]4[C@@]5(C)CC[C@H](OC(=O)CC(C)(C)C(=O)O)C(C)(C)[C@@H]5CC[C@]43C)C1=C(C(C)C)C(=O)C2 | IIIB | 30% human serum | - | MT-2 | <0.199 µM |
| Cc1cn([C@H]2C[C@H](N=[N+]=[N-])[C@@H](COP(=O)(O)OCCO[C@H]3O[C@H](CO)[C@@H](O)[C@H](O)[C@@H]3O)O2)c(=O)[nH]c1=O | LAV-Bru | 14 d | - | U-937 | >25 µM |
| Cc1nc(CCCCCCC(=O)c2ccccc2)n2nc(NCCCCCCCCNCc3cn([C@H]4C=C[C@@H](CO)O4)c(=O)[nH]c3=O)ccc12 | Nevirapine-resistant | - | - | CEM + CEM-SS | 0.18 µM |
| COc1ccnc2[nH]cc(C(=O)C(=O)N3CCN(C(=O)c4ccccc4)C[C@H]3C)c12 | LAI (gp120/gp41 M434I I595F) Recombinant | - | GP120/GP41-M434I I595F | MT-2 | 1.99 µM |
| CC(C)C1=C2C3CCC4[C@@]5(C)CC[C@H](OC(=O)CC(C)(C)C(=O)O)C(C)(C)C5CC[C@@]4(C)[C@]3(C)CC[C@@]2(NC(=O)NCc2cccs2)CC1=O | IIIB | 30% human serum | - | MT-2 | <0.199 µM |
| O=C(CNC(=O)COc1ccccc1)NCc1ccc(C(=O)N2CCCCC2)cc1 | 92UG031 | - | - | PBMC | 17.8 µM |
| Cc1nc(CCCCCCC(=O)c2ccccc2)n2nc(Cl)ccc12 | IIIB | - | - | PBMC | 0.9 µM |
| CC(C)C1=C2[C@H]3CC[C@@H]4[C@@]5(C)CC[C@H](OC(=O)CC(C)(C)C(=O)O)C(C)(C)[C@@H]5CC[C@@]4(C)[C@]3(C)CC[C@@]2(NC(=O)OC(C)(C)C)CC1=O | IIIB | 30% human serum | - | MT-2 | <0.199 µM |
| Cc1nc(CCCCCCC(=O)c2ccccc2)n2nc(NCCCCCCCCCCNCc3cn([C@H]4C=C[C@@H](CO)O4)c(=O)[nH]c3=O)ccc12 | IIIB | - | - | MT-4 | 0.13 µM |
| CC(C)C1=C2C3CCC4[C@@]5(C)CC[C@H](OC(=O)CC(C)(C)C(=O)O)C(C)(C)C5CC[C@@]4(C)[C@]3(C)CC[C@@]2(NC(=O)OCC2CCN(C)C2)CC1=O | IIIB | 30% human serum | - | MT-2 | <0.199 µM |
| Cc1cn([C@H]2C=C[C@@H](CO)O2)c(=O)[nH]c1=O | Nevirapine-resistant | - | - | CEM + CEM-SS | 0.18 µM |
| CCCCCCCCCCCCCCCCOP(=O)(OCCO[C@@H]1O[C@H](CO)[C@@H](O)[C@H](O)[C@@H]1O)OC[C@H]1O[C@@H](n2cc(C)c(=O)[nH]c2=O)C[C@@H]1N=[N+]=[N-] | LAV-Bru | 7 d | - | PBL | >1 µM |
| CC(C)C1=C2C3CCC4[C@@]5(C)CC[C@H](OC(=O)CC(C)(C)C(=O)O)C(C)(C)C5CC[C@@]4(C)[C@]3(C)CC[C@@]2(NC(=O)[C@@H]2CCCN2C(=O)OC(C)(C)C)CC1=O | IIIB | 30% human serum | - | MT-2 | <0.199 µM |
| CCCCCCCCCCCCCCCCOP(=O)(OC[C@H]1OC(O)[C@@H](O)[C@@H](O)[C@@H]1O)OC[C@H]1O[C@@H](n2cc(C)c(=O)[nH]c2=O)C[C@@H]1N=[N+]=[N-] | LAV-Bru | 14 d | - | U-937 | >1 µM |
| [N-]=[N+]=NC[C@H]1[C@H](n2cnc3c(N)ncnc32)O[C@@H]1CO | RF | - | - | PBMC | 0.07 µM |

A second listing of 2 rows from above:

compound,strain or isolate,setting,mutations,cells,value
CC(C)C1=C2C3CCC4[C@@]5(C)CC[C@H](OC(=O)CC(C)(C)C(=O)O)C(C)(C)C5CC[C@@]4(C)[C@]3(C)CC[C@@]2(NC(=O)[C@@H]2CCCN2C(=O)OC(C)(C)C)CC1=O,IIIB,30% human serum,-,MT-2,<0.199 µM
CC(C)C1=C2[C@H]3CC[C@@H]4[C@@]5(C)CC[C@H](OC(=O)CC(C)(C)C(=O)O)C(C)(C)[C@@H]5CC[C@@]4(C)[C@]3(C)CC[C@@]2(NC(=O)OC(C)(C)C)CC1=O,IIIB,30% human serum,-,MT-2,<0.199 µM